Among the data in paper PMC8800143 are Kd values, retold here.

This experiment deals with SARS-CoV-2 spike S1 (wild-type) (SARS-CoV-2). The experiment in a line: BLI. On the technique in general: In BLI a coated tip is dipped into the sample, and binding shifts an interference pattern.

The Kd is the constant that tells how readily two partners part at equilibrium. Read a high Kd as a looser complex. For “Fc-tag tagged human ACE2 (from UniProt Q9BYF1) (Fc fusion)”, the dissociation constant (Kd) is 58.8 nM.
